Patent US20230365662A1 (K BIO INVESTMENT, published 2023)

Target: T1, Porphyromonas gingivalis strain W83 whole cells (surface gingipain/adhesin/hemagglutinin complex)
T1 construct: also called whole P. gingivalis cells
Assay: surface plasmon resonance, whole cells W83, row of 100 nM

B1: KB001 (antibody, V domains shown)
VH: EVQLKQSGPGLVAPSQSLSITCTVSGFSLSIYSVHWVRQPPGKGLEWLGMIWGGGSSDYNSALKSRLSISKDNSKSQVFLKMNSLQTDDTAMYYCARNGNFYAMDYWGQGTSVTVSS
VL: QIVLTQSPAIMSASLGERVTMTCTASSSVSSSFLHWYQQKPGSSPQLWIYSTSNLASGVPARFSGSGSGTSYSLTISSMEAEDAATYYCHQYHHSPYIYTFGGGTKLEIKR
notes: also called KB001-WT-Ab; parental antibody
  koff: 0.000219 s⁻¹
  kon: 19200 M⁻¹ s⁻¹
